# PubChem BioAssay AID504761 – Drosophila RNAi Screening Center | 2011
# Test: 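Fly genes whose silencing reduces dengue virus type 2 infection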 (primary screen)
# System: D.Mel-2 cells from Drosophila
# Knock-down reagent: long dsRNA against Drosophila genes
# Treatment: infection with dengue virus type 2; dose and infection time not stated
# Measured: 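Cells stained for dengue envelope protein and imaged; percent of infected cells per well on duplicate plates, ranked by infection, with stained nuclei counted for cell number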
# Scale: infection score: higher = more virus-infected cells
# Call rule: 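Very low infection ranking in both replicate wells (chance probability at most 0.065), then a retest showing infection dropped 1.5-fold or more at p below 0.05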
# Meaning of the calls: active = confirmed: knock-down lowers infection; inactive = not picked or not confirmed
# In all, the deposit lists about 22,000 reagents; shown is a random part of those with a known target gene and a result. In the full data, 116 (0.52%) are marked active. 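Calls depend on retest data that are not deposited; infection was ranked per plate without normalising between plates; the unit of the infection score is not given.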 Further read-outs or replicates are left out here. Reagent sequences are not shown. The record does not give: the amount of reagent, the time to read-out.
Gene,amplicon,"infection score, replicate 1","infection score, replicate 2",Call
zuc,DRSC02160,16,13.9,inactive
Obp93a,DRSC15220,14.7,6.07,inactive
MFS10,DRSC19888,6.76,1.59,inactive
MFS10,DRSC26960,12.6,11.1,inactive
CG14856,DRSC14980,5.58,7.91,inactive
CG7857,DRSC10925,5.21,8.85,inactive
CG7857,DRSC29862,18.5,13.1,inactive
Cog3,DRSC00585,2.25,0.5,inactive
CG42366,DRSC02760,1.97,2.64,inactive
CG42366,DRSC23297,3.27,2.39,inactive
Ypel,DRSC17996,8.47,1.97,inactive
Ypel,DRSC26440,5.05,1.94,inactive
CG13369,DRSC18481,4.47,1.12,inactive
CG13369,DRSC29455,15.9,0.47,inactive
ChLD3,DRSC02640,3.24,7.01,inactive
EMRE,DRSC06686,7,25.3,inactive
CG11037,DRSC11631,8.44,9.07,inactive
CG7058,DRSC20021,3.33,3.23,inactive
CG7058,DRSC25937,2.09,3.8,inactive
CG8833,DRSC11050,10.4,14.9,inactive
l(3)87Df,DRSC16982,1.05,3.58,inactive
CG31516,DRSC11994,3.62,,inactive
sona,DRSC04089,5.07,5.24,inactive
sona,DRSC04574,21.8,23.5,inactive
sona,DRSC04575,,12,inactive
CG15046,DRSC19622,11.8,4.48,inactive
PTP-ER,DRSC04636,4.82,29.4,inactive
PTP-ER,DRSC23325,1.67,7.23,inactive
PTP-ER,DRSC28263,22.5,11.1,inactive
CG13558,DRSC04196,5.22,8.36,inactive
CG13558,DRSC27617,9.57,6.3,inactive
RIOK2,DRSC14413,6.81,7.96,inactive
aln,DRSC08240,0.33,2.14,inactive
CG13022,DRSC09902,2.59,2.59,inactive
CG11723,DRSC00324,12.7,8.34,inactive
CG11723,DRSC24890,2.47,4.93,inactive
Grx3,DRSC02966,10,13,inactive
elg1,DRSC10229,6.39,7.67,inactive
elg1,DRSC27844,13.2,30.4,inactive

Quoted from the entries so far for reference:
Gene,amplicon,"infection score, replicate 1","infection score, replicate 2",Call
aln,DRSC08240,0.33,2.14,inactive
CG13022,DRSC09902,2.59,2.59,inactive
CG11723,DRSC00324,12.7,8.34,inactive
CG11723,DRSC24890,2.47,4.93,inactive
